## Share of PSTVd loop 6 variants by leaf site

Values reported by Wu et al. 2024 (doi:10.1371/journal.ppat.1012142).

PSTVd intermediate strain, loop 6: wild type UGACCGCGAG, pool pattern UNNNCGNNNG; upper and lower strand joined, each 5' to 3', the first 5 letters being the upper strand, closing pairs included.

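Three N. benthamiana plants were inoculated with the whole mutant pool. Samples came from the inoculated region at 5 days, the leaf margin at 10 and upper systemic leaves at 12.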

Values are reads per thousand in the sample; higher means more abundant, 0 means not found.
Each value is the mean of three plants.
"Pool" is the share in the plasmid pool used as inoculum, on the same scale.
The inoculated region was read from the minus strand, the other sites from the plus strand.
IR is the inoculated region, LM the leaf margin, Sys the systemic leaves.
Samples held 36,220 to 57,551 reads, so the smallest values rest on one or two reads.
The authors trace changes outside the varied positions to PCR and sequencing errors or to mutation in the plant; presence does not show that a variant is infectious alone.
For reference, wild type rose from 20.7 per thousand in the pool to 195, 198, 203 (inoculated region), 629, 591, 734 (leaf margin) and 942, 870, 868 (systemic leaves).

UCAGCGUAAG (pool 0.157) read IR 0.0942; LM 0; Sys 0.0137. UUCCCGUUAG (pool 0.301) read IR 0.0954; LM 0; Sys 0. For UUCUCGUCUG (pool 0.418) the result was IR 0.0654; LM 0.0169; Sys 0. For UUUUCGCGUG (pool 0.196) the result was IR 0.106; LM 0.00920; Sys 0. UAUCCGAUAG (pool 0.327) read IR 0.113; LM 0.0387; Sys 0. UCUACGUCUG (pool 0.275) read IR 0.101; LM 0; Sys 0. UGGACGUAAG (pool 0.131) read IR 0.160; LM 0; Sys 0. UAAACGUCUG (pool 0.288) read IR 0.0886; LM 0; Sys 0. UCAACGUGGG (pool 0.222) gave IR 0.0891; LM 0; Sys 0.

For UACGCGAAGG (pool 0.0784) the result was IR 0.0886; LM 0; Sys 0. With UGGGCGCCGG (pool 0.118) the assay gave IR 0.0476; LM 0.0169; Sys 0. With UUACCGUCUG (pool 0.327) the assay gave IR 0.150; LM 0.0155; Sys 0. For UGGCCGCGGG (pool 0.275) the result was IR 0.695; LM 0.127; Sys 0. For UUUGCGUCAG (pool 0.235) the result was IR 0.0894; LM 0.00920; Sys 0. UCGGCGCUCG (pool 0.196) read IR 0.0889; LM 0.00920; Sys 0. For UUACCGGAUG (pool 0.209) the result was IR 0.138; LM 0.0247; Sys 0.00684. For UGUUCGACAG (pool 0.340) the result was IR 0.143; LM 0.00920; Sys 0. With UAGGCGUUCG (pool 0.366) the assay gave IR 0.0717; LM 0; Sys 0.00684.

For UUCGCGCUAG (pool 0.131) the result was IR 0.0831; LM 0.0155; Sys 0. UCUCCGUGCG (pool 0.196) read IR 0.106; LM 0; Sys 0. With UACCCGUGUG (pool 0.288) the assay gave IR 0.124; LM 0.0155; Sys 0. UGCACGGCUG (pool 0.170) gave IR 0.0950; LM 0; Sys 0. UACGCGAGCG (pool 0.222) read IR 0.0940; LM 0; Sys 0. UCACCGUCUG (pool 0.196) gave IR 0.0905; LM 0.00773; Sys 0. UGCACGAGAG (pool 0.235) read IR 0.113; LM 0.0176; Sys 0. With UAAUCGCCUG (pool 0.301) the assay gave IR 0.0708; LM 0.0253; Sys 0. UCCGCGCUCG (pool 0.261) read IR 0.0896; LM 0.0155; Sys 0.

UUCGCGUCCG (pool 0.235) read IR 0.0721; LM 0.0261; Sys 0. UAUCCGUGCG (pool 0.222) read IR 0.0833; LM 0.00920; Sys 0. With UACCCGGCGG (pool 0.248) the assay gave IR 0.100; LM 0.0169; Sys 0. For UAUGCGGAGA (pool 0.0131) the result was IR 0; LM 0; Sys 0. UUUGCGCUGG (pool 0.118) gave IR 0.0536; LM 0.00773; Sys 0. With UCGUCGAUUG (pool 0.471) the assay gave IR 0.0951; LM 0.00773; Sys 0.00684. CGACCGGUAG (pool 0.0131) read IR 0.00579; LM 0.00920; Sys 0. UCCACGGGGG (pool 0.105) read IR 0.0657; LM 0; Sys 0. UUUGCGGCCG (pool 0.144) read IR 0.0954; LM 0.00920; Sys 0.

With UUCUCGCUCG (pool 0.418) the assay gave IR 0.0889; LM 0; Sys 0.

2 of these entries, quoted again:

| sequence | pool | IR | LM | Sys |
|---|---|---|---|---|
| UCUCCGUGCG | 0.196 | 0.106 | 0 | 0 |
| UUCCCGUUAG | 0.301 | 0.0954 | 0 | 0 |